Data as given in patent US10039812B2, “Therapeutic for treating clostridium difficile infection” (priority 2012, dated 2018).

Test system: C. difficile strain 630Δerm
Test: Inhibition of biofilm formation in TC flasks
Conditions: 10 μg/ml added prior to inoculation; 6 day incubation, static and shaking

B1: proteinase K: a proteinase used to digest biofilm constituents (protein, UniProt P06873 106-384, looked up)
Proteinase K: AAQTNAPWGLARISSTSPGTSTYYYDESAGQGSCVYVIDTGIEASHPEFEGRAQMVKTYYYSSRDGNGHGTHCAGTVGSRTYGVAKKTQLFGVKVLDDNGSGQYSTIIAGMDFVASDKNNRNCPKGVVASLSLGGGYSSSVNSAAARLQSSGVMVAVAAGNNNADARNYSPASEPSVCTVGASDRYDRRSSFSNYGSVLDIFGPGTSILSTWIGGSTRSISGTSMATPHVAGLAAYLMTLGKTTAASACRYIADTANKGDLSNIPFGTVNLLAYNNYQA
Biofilm formation (flocs or aggregates): appeared smaller in the case of the aggregates and less dense in the case of the floc
